Measured values from several laboratories, pooled; numbers as filed in NIAID ChemDB.

Common to all: whole-cell or culture tests; organism: Hepatitis C virus

Conditions beyond the fields shown may differ between rows. ECn: concentration that inhibits the pathogen or its effect by n%. An empty or dashed field is not shown. Two numbers with a dash give a range or band.

structure	cell line	method	strain	conditions	measure	changes	value
CCc1ccc(S(=O)(=O)N2CCN(c3cc(OC)cc(OC)c3)CC2C(=O)N(Cc2ccccc2Cl)Cc2ccccc2Cl)cc1	-	replicon	1a	-	EC50	-	>50 µM
C=CC1CC1(NC(=O)[C@@H]1C[C@@H](Oc2cc(-c3ccccc3)nc3cc(OC)ccc23)CN1C(=O)[C@@H](CC(=O)N1CCC(O)C1)C(C)(C)C)C(=O)O	-	replicon	-	-	EC50	-	>10 µM
COc1ncc(OC)c(N2CCN(S(=O)(=O)c3ccc(OC(F)(F)F)cc3)C(C(=O)NCc3ccc(OC(F)(F)F)cc3)C2)n1	-	replicon	1b	-	EC50	-	0.4 µM
C#Cc1cn([C@H]2O[C@H](CO)[C@@H](O)[C@@]2(C)F)c2nc(N)nc(N)c12	CEM	replicon	-	-	EC90	-	>10 µM
N#Cc1c(Nc2cc(Cl)nc(Cl)n2)s[nH]c1=O	Huh7	replicon	-	-	EC50	-	1–10 µM
CCCCn1c(=O)c2cc(OC)ccc2c2cc(C(O)(C(F)(F)F)C(F)(F)F)c(OC)cc21	LucNeo2 cells	luciferase	1b	-	EC50	-	0.13 µM
CC1CCC(C(=O)N(CC(F)F)c2cc(-c3ccc(NC(=O)c4cscn4)cc3)sc2C(=O)O)CC1	-	replicon	1a	-	EC50	-	<0.5 µM
C[C@H](NC(=O)Cc1ccccc1)C(=O)Nc1ccc(C2SC3=Nc4ccccc4CN3C2=O)cc1	Huh7	replicon	-	-	EC50	-	0.1–1 µM
C=CC1CC1(NC(=O)[C@@H]1C[C@@H](Oc2cc(-c3ccccc3)nc3cc(OC)ccc23)CN1C(=O)[C@@H](CC(=O)N1CCCc2ccccc21)C(C)(C)C)C(=O)OCC	-	replicon	-	-	EC50	-	>10 µM
O=C(Nc1cccc(-c2cc(-c3cccc(Cl)c3Cl)no2)c1)C(Cl)Cl	-	replicon	-	-	EC50	-	>10 µM
COc1nc(N)nc2c1ncn2[C@@H]1O[C@H](COP(=O)(N[C@@H](C)C(=O)OC(C)C)Oc2ccccc2)[C@@H](O)[C@@]1(C)F	-	replicon	2a	83 d	EC50	-	0.067 µM
C[C@@H](NC(=O)OCc1ccccc1)C(=O)Nc1ccc(C2SC(=Nc3cccc(Cl)c3)N(Cc3ccco3)C2=O)cc1	Huh7	replicon	-	-	EC50	-	0.1–1 µM
CC1CCC(C(=O)N(c2cc(-c3ccc(NC(=O)c4ccn(C)n4)cc3)sc2C(=O)O)C(C)C)CC1	-	replicon	1a	-	EC50	-	<0.5 µM
O=C(Nc1cc(-c2cc(-c3c(Cl)cccc3Cl)no2)ccc1OCCN1CCOCC1)C(Cl)Cl	-	replicon	-	-	EC50	-	>10 µM
COC(=O)N[C@H](C(=O)N1CCC[C@H]1c1ncc(-c2ccc(-c3ccc(-c4cnc([C@@H]5CCCN5C(=O)[C@@H](NC(=O)OC)C(C)C)[nH]4)cc3)cc2)[nH]1)C(C)C	ET	luciferase	1b	-	EC50	Y93H	0.00044 µM
CC1CCC(C(=O)N(c2cc(-c3ccc(NC(=O)c4cnccn4)nc3)sc2C(=O)O)C(C)C)CC1	-	replicon	1b	-	EC50	-	<0.5 µM
C[C@@]1(F)[C@H](O)[C@@H](CO)O[C@@H]1n1ccc2c(N)nc(N)nc21	CEM	replicon	-	-	EC90	-	>10 µM
O=C(Nc1ccc(C2SC(=Nc3cccc(F)c3)N(Cc3ccco3)C2=O)cc1)[C@H]1CCCN1C(=O)Cc1ccccc1	Huh7	replicon	-	-	EC50	-	<0.1 µM
O=C(Nc1cccc(-c2cc(-c3c(C4CC4)cccc3C(F)(F)F)no2)c1)C(Cl)Cl	-	replicon	-	-	EC50	-	≤10 µM
C[C@@H](NC(=O)OCc1ccccc1)C(=O)Nc1ccc(C2SC(=NCc3ccccn3)N(C)C2=O)cc1	Huh7	replicon	-	-	EC50	-	1–5 µM
N#Cc1c(Nc2cccc(Cl)c2)s[nH]c1=O	Huh7	replicon	-	-	EC50	-	1–10 µM
COc1ccc(-c2cc(-c3c(Cl)cccc3Cl)no2)cc1NC(=O)C(Cl)Cl	-	replicon	-	-	EC50	-	≤10 µM
COc1ncnc2c1ccn2[C@H]1O[C@H](CO)[C@@H](O)[C@@]1(C)F	CEM	replicon	-	-	EC90	-	>10 µM
CC1CCC(C(=O)N(c2cc(-c3ccc(NC(=O)c4ncccc4F)cc3)sc2C(=O)O)C(C)C)CC1	-	replicon	1b	-	EC50	-	<0.5 µM
C=CC1CC1(NC(=O)[C@@H]1C[C@@H](Oc2cc(-c3ccccc3)nc3cc(OC)ccc23)CN1C(=O)[C@@H](CC(=O)N1CCN(C)CC1)C(C)(C)C)C(=O)O	-	replicon	-	-	EC50	-	>10 µM
COc1cc(-c2cc(N(C(=O)C3CCC(C)CC3)C(C)C)c(C(=O)O)s2)ccc1NC(=O)c1cscn1	-	replicon	1b	-	EC50	-	<0.5 µM
C[C@@]1(F)[C@H](O)[C@@H](CO)O[C@@H]1n1cc(C#Cc2ccccc2)c2c(N)ncnc21	CEM	replicon	-	-	EC90	-	>10 µM
Cc1cc(-c2nnc(NC3CC(O)C3)o2)nc2c(C(C)(C)C)cc(OCC(F)(F)F)cc12	Huh7	-	GT 1b H94N	-	EC50	-	0.741 µM
N#Cc1c(Nc2cc(F)c(Br)c(F)c2)s[nH]c1=O	Huh7	replicon	-	-	EC50	-	<1 µM
COc1cccc(C(F)(F)F)c1-c1cc(-c2cccc(NC(=O)C(Cl)Cl)c2)on1	-	replicon	-	-	EC50	-	≤10 µM
N#Cc1c(Nc2ccc(Br)c(F)c2)s[nH]c1=O	Huh7	replicon	-	-	EC50	-	<1 µM
COC(=O)c1ccccc1-c1cc(-c2cccc(NC(=O)C(Cl)Cl)c2)on1	-	replicon	-	-	EC50	-	≤10 µM
CCOC(=O)[C@@]12C[C@H]1/C=C\CCCCC[C@H](CC(=O)OC(C)(C)C)C(=O)N1C[C@H](Oc3cc(-c4ccccc4)nc4cc(OC)ccc34)C[C@H]1C(=O)N2	-	replicon	-	-	EC50	-	>10 µM
COc1c(CC=C(C)C)c(O)cc2oc(=O)c(-c3ccc(O)cc3O)cc12	-	replicon	1b	-	EC50	-	15.5 µg/mL
Cc1cc(-c2nnc(N[C@@H]3CCC[C@H](O)C3)o2)nc2c(C(C)(C)C)cc(NCC(F)(F)F)cc12	Huh7	luciferase	WT 1b	-	EC50	-	0.0001 µM
Cc1cnc(CN2C(=O)C(c3ccc(NC(=O)[C@H]4CCC(=O)N4C(=O)OCc4ccccc4)cc3)SC2=Nc2ccc(N3CCOCC3)cc2)cn1	Huh7	replicon	-	-	EC50	-	<0.1 µM
N#Cc1c(Nc2cccnc2)s[nH]c1=O	Huh7	replicon	-	-	EC50	-	10–50 µM

Repeating the first 4 entries:

{"structure": "CCc1ccc(S(=O)(=O)N2CCN(c3cc(OC)cc(OC)c3)CC2C(=O)N(Cc2ccccc2Cl)Cc2ccccc2Cl)cc1", "method": "replicon", "strain": "1a", "measure": "EC50", "value": ">50 µM"}
{"structure": "C=CC1CC1(NC(=O)[C@@H]1C[C@@H](Oc2cc(-c3ccccc3)nc3cc(OC)ccc23)CN1C(=O)[C@@H](CC(=O)N1CCC(O)C1)C(C)(C)C)C(=O)O", "method": "replicon", "measure": "EC50", "value": ">10 µM"}
{"structure": "COc1ncc(OC)c(N2CCN(S(=O)(=O)c3ccc(OC(F)(F)F)cc3)C(C(=O)NCc3ccc(OC(F)(F)F)cc3)C2)n1", "method": "replicon", "strain": "1b", "measure": "EC50", "value": "0.4 µM"}
{"structure": "C#Cc1cn([C@H]2O[C@H](CO)[C@@H](O)[C@@]2(C)F)c2nc(N)nc(N)c12", "cell line": "CEM", "method": "replicon", "measure": "EC90", "value": ">10 µM"}